A mixed list of measured activities; the numbers were collected in NIAID ChemDB.

Common to all: whole-cell or culture tests; agent: Hepatitis C virus; read-out: inhibition

Percent inhibition refers to the dose given; in toxicity tests it is the harm to the cells. An empty or dashed field is not shown. Lines come from different laboratories, so protocols vary.

smiles	strain	cell line	method	setting	tested at	result
O=C(OCC1=C[C@@H](O)[C@@H]2C=CO[C@@H](O)[C@H]12)c1ccc(O)cc1	-	-	entry	-	20 µg/mL	20.3%
COc1cccc(-c2ccccc2NC(=O)C2CCN(CCC(C)c3ccccc3)CC2)c1	JFH-1	Huh7	PCR	-	15 µM	≥40%
COC(=O)C1=CO[C@@H](O)[C@H]2[C@@H]1C=C[C@@]2(O)CO	-	-	entry	-	20 µg/mL	21.1%
CC1(C)CC[C@@]2(C(=O)NCCCCNC(=O)[C@]34CCC(C)(C)CC3C3=CCC5[C@@]6(C)CC[C@H](O)C(C)(C)C6CC[C@@]5(C)[C@]3(C)C[C@H]4O)C(C1)C1=CCC3[C@@]4(C)CC[C@H](O)C(C)(C)C4CC[C@@]3(C)[C@]1(C)C[C@H]2O	-	Huh7	luciferase / entry	-	5 µM	59.6%
O=C(Nc1cccc(-c2ccco2)c1)C1CCN(C(=O)c2n[nH]c3c2CCC3)CC1	JFH-1	Huh7	PCR	-	15 µM	<40%
COC(=O)C1=CO[C@@H](O)[C@H]2[C@@H]1C(=O)C[C@@H]2C	-	-	entry	-	20 µg/mL	43.4%
COc1cc([C@H]2O[C@@H](c3cc(OC)c4c(c3)OCO4)[C@@H](C)[C@@H]2C)cc2c1OCO2	Cell culture J6/JFH-1	Huh7.5	-	-	25 µM	100%
C[C@H]1[C@H](C)CC[C@]2(C(=O)O)CC[C@]3(C)C(=CC[C@@H]4[C@@]5(C)CC[C@H](O)C(C)(C)[C@@H]5CC[C@]43C)[C@H]12	-	Huh7	luciferase / entry	-	5 µM	35.1%
Cn1c(=O)c2c(ncn2C)n(C)c1=O	JFH-1	Huh7.5	luciferase / replicon	-	500 µM	33.56%
O=C1N/C(=N\c2nnc(-c3ccc(Cl)cc3)s2)S/C1=C\c1ccccc1Cl	-	Huh7.5-FGR-JC1-Rluc2A	MTS	-	100 µM	0%
CCCn1cc(CNC(=O)[C@]23CCC(C)(C)CC2C2=CCC4[C@@]5(C)CC[C@H](O)C(C)(C)C5CC[C@@]4(C)[C@]2(C)C[C@H]3O)nn1	-	Huh7	luciferase / entry	-	1 µM	2.2%
COc1nc(N)nc2c1ncn2[C@@H]1O[C@H](COP(=O)(N[C@@H](C)C(=O)OC(C)C)Oc2ccccc2)[C@@H](O)[C@@]1(C)F	JFH-1	-	-	-	0.0112 µM	90%
CC1(C)CC[C@@]2(C(=O)NCc3cn(CCCCCn4cc(CNC(=O)[C@]56CCC(C)(C)CC5C5=CCC7[C@@]8(C)CC[C@H](O)C(C)(C)C8CC[C@@]7(C)[C@]5(C)C[C@H]6O)nn4)nn3)C(C1)C1=CCC3[C@@]4(C)CC[C@H](O)C(C)(C)C4CC[C@@]3(C)[C@]1(C)C[C@H]2O	-	Huh7	luciferase / entry	-	1 µM	65.5%
CC(=O)OC[C@]12[C@H](OC(C)=O)[C@H](OCc3ccccc3)[C@@H]3[C@@H](OC(C)=O)[C@@]14O[C@@]3(C)COC(=O)c1cccnc1C(C)C(C)C(=O)O[C@@H]([C@H](OC(C)=O)[C@@H]2OC(C)=O)[C@]4(C)O	Cell culture J6/JFH-1	Huh7.5	-	-	50 µM	96%
CC1(C)CC[C@@]2(C(=O)NCCOCCOCCOCCNC(=O)[C@]34CCC(C)(C)CC3C3=CCC5[C@@]6(C)CC[C@H](O)C(C)(C)C6CC[C@@]5(C)[C@]3(C)C[C@H]4O)C(C1)C1=CCC3[C@@]4(C)CC[C@H](O)C(C)(C)C4CC[C@@]3(C)[C@]1(C)C[C@H]2O	-	Huh7	luciferase / entry	-	1 µM	77.5%
COc1cccc(-c2ccccc2NC(=O)C2CCN(Cc3ccc(OC)c(C)c3)CC2)c1	JFH-1	Huh7	PCR	-	15 µM	≥40%
CC1(C)CC[C@@]2(C(=O)NCc3cn(-c4ccc(-n5cc(CNC(=O)[C@]67CCC(C)(C)CC6C6=CCC8[C@@]9(C)CC[C@H](O)C(C)(C)C9CC[C@@]8(C)[C@]6(C)C[C@H]7O)nn5)cc4)nn3)C(C1)C1=CCC3[C@@]4(C)CC[C@H](O)C(C)(C)C4CC[C@@]3(C)[C@]1(C)C[C@H]2O	-	Huh7	luciferase / entry	-	1 µM	68.9%
O=C(N[C@@H](C(=O)N1CCC[C@H]1C(=O)Nc1nc(-c2ccccc2)cs1)c1ccccc1)C1CC1	genotype 2a	-	luciferase	-	1.1746 µM	90%
CC1(C)CC[C@@]2(C(=O)NCc3cn(CCO)nn3)C(C1)C1=CCC3[C@@]4(C)CC[C@H](O)C(C)(C)C4CC[C@@]3(C)[C@]1(C)C[C@H]2O	-	Huh7	luciferase / entry	-	1 µM	34.9%
CC#COCN1CCC(C(=O)Nc2cccc(-c3cc4ccccc4[nH]3)c2)CC1	JFH-1	Huh7	PCR	-	5 µM	≥40%
CC1(C)CC[C@@]2(C(=O)NCc3cn(Cc4ccc(Cn5cc(CNC(=O)[C@]67CCC(C)(C)CC6C6=CCC8[C@@]9(C)CC[C@H](O)C(C)(C)C9CC[C@@]8(C)[C@]6(C)C[C@H]7O)nn5)cc4)nn3)C(C1)C1=CCC3[C@@]4(C)CC[C@H](O)C(C)(C)C4CC[C@@]3(C)[C@]1(C)C[C@H]2O	-	Huh7	luciferase / entry	-	5 µM	90.7%
CC1(C)CC[C@]2(C(=O)O)[C@H](O)C[C@]3(C)C(=CC[C@@H]4[C@@]5(C)CC[C@H](O)C(C)(C)[C@@H]5CC[C@]43C)[C@@H]2C1	-	Huh7	luciferase / entry	pseudotyped	5 µM	9%
C[C@H]1[C@H]2[C@H](O)OC=C(C(=O)O)[C@H]2C[C@@H]1O	-	-	entry	-	20 µg/mL	5.3%
CC1(C)CC[C@@]2(C(=O)NCc3cn(CCOCCn4cc(CNC(=O)[C@]56CCC(C)(C)CC5C5=CCC7[C@@]8(C)CC[C@H](O)C(C)(C)C8CC[C@@]7(C)[C@]5(C)C[C@H]6O)nn4)nn3)C(C1)C1=CCC3[C@@]4(C)CC[C@H](O)C(C)(C)C4CC[C@@]3(C)[C@]1(C)C[C@H]2O	-	Huh7	luciferase / entry	-	5 µM	83.7%

Repeating the final 2 entries:

smiles | strain | cell line | method | setting | tested at | result
C[C@H]1[C@H]2[C@H](O)OC=C(C(=O)O)[C@H]2C[C@@H]1O | - | - | entry | - | 20 µg/mL | 5.3%
CC1(C)CC[C@@]2(C(=O)NCc3cn(CCOCCn4cc(CNC(=O)[C@]56CCC(C)(C)CC5C5=CCC7[C@@]8(C)CC[C@H](O)C(C)(C)C8CC[C@@]7(C)[C@]5(C)C[C@H]6O)nn4)nn3)C(C1)C1=CCC3[C@@]4(C)CC[C@H](O)C(C)(C)C4CC[C@@]3(C)[C@]1(C)C[C@H]2O | - | Huh7 | luciferase / entry | - | 5 µM | 83.7%